In paper doi:10.1101/2020.08.10.244244 one finds reduction of the subunit in the HA-AP2σ2 immunoprecipitate against WT cells data, which are given here for two substances.

This experiment addresses HA-tagged mutant (Leu15) AP2σ2 subunit (human) (human) (UniProt P53680). The experiment in a line: co-IP.

Turning to “AP2β2 subunit, endogenous in HEK293 cells (from UniProt P63010 1-937) (natural protein)”, the reduction of the subunit in the HA-AP2σ2 immunoprecipitate against WT cells was greater than 50%.

The substance “AP2μ2 subunit, endogenous in HEK293 cells (from UniProt Q96CW1 1-435) (natural protein)” registered a reduction of the subunit in the HA-AP2σ2 immunoprecipitate against WT cells greater than 50%.
